From patent US4346087A, “Antibacterial surface active agent containing azaalkenelactam” (priority 1979, dated 1982)

Experiments:
[1] = Metal corrosion inhibition in brake fluid A, brass; settings: 100°±2° C., 120±2 hours, blank -0.20
[2] = Metal corrosion inhibition in brake fluid A, aluminum; settings: 100°±2° C., 120±2 hours, blank +0.07
[3] = Metal corrosion inhibition in brake fluid A, copper; settings: 100°±2° C., 120±2 hours, blank +0.18
[4] = Metal corrosion inhibition in brake fluid A, steel; settings: 100°±2° C., 120±2 hours, blank -0.20
[5] = Metal corrosion inhibition in brake fluid A, cast iron; settings: 100°±2° C., 120±2 hours, blank -0.14
[6] = Metal corrosion inhibition in brake fluid A, tin-plate; settings: 100°±2° C., 120±2 hours, blank -0.15
[7] = Table 4, azaalkenelactams […] by weight in brake fluid A
[8] = Table 5, carboxylate derivatives […] by weight in brake fluid A

## CCCCCCCC(=O)OCCN1CCN=C(C)CC1=O [Example 24, 4-octoyloxyethyl-7-methyl-3,6-dihydro-2H-1,4-diazepin-5-one]
[1]; [7]
  Weight change, brass: -0.02 mg/cm^2
[2]; [7]
  Weight change, aluminum: +0.01 mg/cm^2
[3]; [7]
  Weight change, copper: +0.01 mg/cm^2
[4]; [7]
  Weight change, steel: -0.01 mg/cm^2
[5]; [7]
  Weight change, cast iron: 0 mg/cm^2
[6]; [7]
  Weight change, tin-plate: -0.01 mg/cm^2

## 1-coconutalkyl-4-methyl-3,6,7,8-tetrahydro-1,5-diazocin-2-one [Example 15]
[1]; [7]
  Weight change, brass: 0 mg/cm^2
[2]; [7]
  Weight change, aluminum: 0 mg/cm^2
[3]; [7]
  Weight change, copper: +0.01 mg/cm^2
[4]; [7]
  Weight change, steel: 0 mg/cm^2
[5]; [7]
  Weight change, cast iron: -0.01 mg/cm^2
[6]; [7]
  Weight change, tin-plate: 0 mg/cm^2

## CCCCCCCCCCCCCCCCCCCCCCNCCN1CC[N+](CC(=O)[O-])=C(C)CC1=O [4-docosylaminoethyl-7-methyl-1-azonia-4-azacyclohept-7-en-5-one-1-acetate]
[1]; [8]
  Weight change, brass: -0.01 mg/cm^2
[2]; [8]
  Weight change, aluminum: +0.02 mg/cm^2
[3]; [8]
  Weight change, copper: 0 mg/cm^2
[4]; [8]
  Weight change, steel: -0.02 mg/cm^2
[5]; [8]
  Weight change, cast iron: 0 mg/cm^2
[6]; [8]
  Weight change, tin-plate: -0.03 mg/cm^2

## CCCCCCCC(=O)NCCN1CCN=C(C)CC1=O [Example 23, 4-octamidoethyl-7-methyl-3,6-dihydro-2H-1,4-diazepin-5-one]
[1]; [7]
  Weight change, brass: -0.03 mg/cm^2
[2]; [7]
  Weight change, aluminum: 0 mg/cm^2
[3]; [7]
  Weight change, copper: +0.03 mg/cm^2
[4]; [7]
  Weight change, steel: -0.01 mg/cm^2
[5]; [7]
  Weight change, cast iron: -0.01 mg/cm^2
[6]; [7]
  Weight change, tin-plate: 0 mg/cm^2

## CCCCCCCCCCCCC(O)CNCCN1CC[N+](CC(=O)[O-])=C(C)CC1=O (stereo not drawn) [4-(2-hydroxytetradecyl)aminoethyl-7-methyl-1-azonia-4-azacyclohept-7-en-5-one-1-acetate]
[1]; [8]
  Weight change, brass: 0 mg/cm^2
[2]; [8]
  Weight change, aluminum: +0.01 mg/cm^2
[3]; [8]
  Weight change, copper: -0.01 mg/cm^2
[4]; [8]
  Weight change, steel: -0.03 mg/cm^2
[5]; [8]
  Weight change, cast iron: -0.01 mg/cm^2
[6]; [8]
  Weight change, tin-plate: -0.02 mg/cm^2

## CCCCCCCCCCCCNCCNCCN1CCN=C(C)CC1=O [Example 34, 4-dodecylaminoethylaminoethyl-7-methyl-3,6-dihydro-2H-1,4-diazepin-5-one]
[1]; [7]
  Weight change, brass: -0.01 mg/cm^2
[2]; [7]
  Weight change, aluminum: 0 mg/cm^2
[3]; [7]
  Weight change, copper: +0.01 mg/cm^2
[4]; [7]
  Weight change, steel: -0.01 mg/cm^2
[5]; [7]
  Weight change, cast iron: -0.01 mg/cm^2
[6]; [7]
  Weight change, tin-plate: 0 mg/cm^2

## CCCCCCCCCCCCCCCCCCCCCC(=O)OCCCN1CCCN=CC(C)C1=O (stereo not drawn) [Example 51, 1-behenoyloxypropyl-3-methyl-3,6,7,8-tetrahydro-1,5-diazocin-2-one]
[1]; [7]
  Weight change, brass: -0.03 mg/cm^2
[2]; [7]
  Weight change, aluminum: 0 mg/cm^2
[3]; [7]
  Weight change, copper: +0.02 mg/cm^2
[4]; [7]
  Weight change, steel: -0.02 mg/cm^2
[5]; [7]
  Weight change, cast iron: -0.01 mg/cm^2
[6]; [7]
  Weight change, tin-plate: -0.02 mg/cm^2

## 4-octoxy(2-hydroxy)propyl-7-methyl-3,6-dihydro-2H-1,4-diazepin-5-one [Example 31]
[1]; [7]
  Weight change, brass: -0.03 mg/cm^2
[2]; [7]
  Weight change, aluminum: +0.01 mg/cm^2
[3]; [7]
  Weight change, copper: +0.01 mg/cm^2
[4]; [7]
  Weight change, steel: -0.02 mg/cm^2
[5]; [7]
  Weight change, cast iron: -0.01 mg/cm^2
[6]; [7]
  Weight change, tin-plate: -0.01 mg/cm^2

## CCCCCCCCCCCCCCNCCN1CCN=C(C)CC1=O [Example 35, 4-tetradecylaminoethyl-7-methyl-3,6-dihydro-2H-1,4-diazepin-5-one]
[1]; [7]
  Weight change, brass: 0 mg/cm^2
[2]; [7]
  Weight change, aluminum: 0 mg/cm^2
[3]; [7]
  Weight change, copper: +0.01 mg/cm^2
[4]; [7]
  Weight change, steel: -0.01 mg/cm^2
[5]; [7]
  Weight change, cast iron: -0.01 mg/cm^2
[6]; [7]
  Weight change, tin-plate: 0 mg/cm^2

## CCCCCCCCCCCCN1CC[N+](CC(=O)[O-])=C(C)CC1=O [4-dodecyl-7-methyl-1-azonia-4-azacyclohept-7-en-5-on-1-acetate]
[1]; [8]
  Weight change, brass: +0.01 mg/cm^2
[2]; [8]
  Weight change, aluminum: 0 mg/cm^2
[3]; [8]
  Weight change, copper: 0 mg/cm^2
[4]; [8]
  Weight change, steel: -0.01 mg/cm^2
[5]; [8]
  Weight change, cast iron: -0.04 mg/cm^2
[6]; [8]
  Weight change, tin-plate: -0.03 mg/cm^2

## CCCCCCCCCc1ccc(OCCOCCN2CCC[N+](CC(=O)[O-])=C(C)CC2=O)cc1 [1-nonylphenylpoly(2 moles)oxyethyleneoxyethyl-4-methyl-1-aza-5-azoniacyclooct-4-en-2-one-5-acetate]
[1]; [8]
  Weight change, brass: -0.01 mg/cm^2
[2]; [8]
  Weight change, aluminum: +0.01 mg/cm^2
[3]; [8]
  Weight change, copper: 0 mg/cm^2
[4]; [8]
  Weight change, steel: -0.03 mg/cm^2
[5]; [8]
  Weight change, cast iron: -0.02 mg/cm^2
[6]; [8]
  Weight change, tin-plate: -0.02 mg/cm^2

## CCCCCCCC(=O)NCCN1CC[N+](CC(=O)[O-])=C(C)CC1=O [4-octamidoethyl-7-methyl-1-azonia-4-azacyclohept-7-en-5-one-1-acetate]
[1]; [8]
  Weight change, brass: 0 mg/cm^2
[2]; [8]
  Weight change, aluminum: 0 mg/cm^2
[3]; [8]
  Weight change, copper: 0 mg/cm^2
[4]; [8]
  Weight change, steel: -0.02 mg/cm^2
[5]; [8]
  Weight change, cast iron: -0.01 mg/cm^2
[6]; [8]
  Weight change, tin-plate: -0.03 mg/cm^2

## CCCCCCCCCCC(O)CN1CCN=CC(C)C1=O (stereo not drawn) [Example 43, 4-(2-hydroxy)dodecyl-6-methyl-3,6-dihydro-2H-1,4-diazepin-5-one]
[1]; [7]
  Weight change, brass: -0.02 mg/cm^2
[2]; [7]
  Weight change, aluminum: +0.01 mg/cm^2
[3]; [7]
  Weight change, copper: +0.01 mg/cm^2
[4]; [7]
  Weight change, steel: 0 mg/cm^2
[5]; [7]
  Weight change, cast iron: -0.02 mg/cm^2
[6]; [7]
  Weight change, tin-plate: -0.01 mg/cm^2

## CCCCCCCCCc1ccc(OCC(O)CNCCNCCNCCN2CC[N+](CC(=O)[O-])=CC(C)C2=O)cc1 (stereo not drawn) [4-nonylphenoxy(2-hydroxy)propylaminoethylaminoethylaminoethyl-6-methyl-1-azonia-4-azacyclohept-7-en-5-one-1-acetate]
[1]; [8]
  Weight change, brass: -0.01 mg/cm^2
[2]; [8]
  Weight change, aluminum: +0.02 mg/cm^2
[3]; [8]
  Weight change, copper: -0.01 mg/cm^2
[4]; [8]
  Weight change, steel: -0.03 mg/cm^2
[5]; [8]
  Weight change, cast iron: 0 mg/cm^2
[6]; [8]
  Weight change, tin-plate: -0.02 mg/cm^2

## CC1=[N+](CC(=O)[O-])CCN(CC(C)OCC(C)OCC(C)OCc2ccc(C)cc2)C(=O)C1 (stereo not drawn) [4-methylbenzylpoly(2 moles)oxypropyleneoxypropyl-7-methyl-1-azonia-4-azacyclohept-7-en-5-one-1-acetate]
[1]; [8]
  Weight change, brass: -0.01 mg/cm^2
[2]; [8]
  Weight change, aluminum: +0.02 mg/cm^2
[3]; [8]
  Weight change, copper: 0 mg/cm^2
[4]; [8]
  Weight change, steel: -0.03 mg/cm^2
[5]; [8]
  Weight change, cast iron: -0.01 mg/cm^2
[6]; [8]
  Weight change, tin-plate: -0.01 mg/cm^2

## CCCCCCCCCCCCCCNCCN1CCC[N+](C(C)C(=O)[O-])=CC(C)(C)C1=O (stereo not drawn) [1-tetradecylaminoethyl-3,3-dimethyl-1-aza-5-azoniacyclooct-4-en-2-one-5-propionate]
[1]; [8]
  Weight change, brass: -0.01 mg/cm^2
[2]; [8]
  Weight change, aluminum: +0.02 mg/cm^2
[3]; [8]
  Weight change, copper: 0 mg/cm^2
[4]; [8]
  Weight change, steel: -0.02 mg/cm^2
[5]; [8]
  Weight change, cast iron: -0.02 mg/cm^2
[6]; [8]
  Weight change, tin-plate: -0.02 mg/cm^2

## CCCCCCCCc1ccc(OCCOC(C)COC(C)CN2CCN=C(C)CC2=O)cc1 (stereo not drawn) [Example 19]
[1]; [7]
  Weight change, brass: 0 mg/cm^2
[2]; [7]
  Weight change, aluminum: +0.01 mg/cm^2
[3]; [7]
  Weight change, copper: +0.01 mg/cm^2
[4]; [7]
  Weight change, steel: -0.02 mg/cm^2
[5]; [7]
  Weight change, cast iron: -0.02 mg/cm^2
[6]; [7]
  Weight change, tin-plate: -0.02 mg/cm^2

## CCCCCCCCCCCCCCNCCN1CCN=CCC(C)C1=O (stereo not drawn) [Example 65, 4-tetradecylaminoethyl-6-methyl-2,3,6,7-tetrahydro-1,4-diazocin-5-one]
[1]; [7]
  Weight change, brass: -0.01 mg/cm^2
[2]; [7]
  Weight change, aluminum: 0 mg/cm^2
[3]; [7]
  Weight change, copper: -0.01 mg/cm^2
[4]; [7]
  Weight change, steel: -0.01 mg/cm^2
[5]; [7]
  Weight change, cast iron: -0.01 mg/cm^2
[6]; [7]
  Weight change, tin-plate: 0 mg/cm^2

## CCCCCCCCCCCCCCNCCN1CC[N+](C(C)C(=O)[O-])=CCC(C)C1=O (stereo not drawn)
[1]; [8]
  Weight change, brass: -0.02 mg/cm^2
[2]; [8]
  Weight change, aluminum: 0 mg/cm^2
[3]; [8]
  Weight change, copper: -0.02 mg/cm^2
[4]; [8]
  Weight change, steel: -0.02 mg/cm^2
[5]; [8]
  Weight change, cast iron: -0.02 mg/cm^2
[6]; [8]
  Weight change, tin-plate: -0.02 mg/cm^2

## CCCCCCCCCCCC(=O)OCCN1CCN=C(C)CC1=O [Example 12, 4-lauroyloxyethyl-7-methyl-3,6-dihydro-2H-1,4-diazepin-5-one]
[1]; [7]
  Weight change, brass: -0.02 mg/cm^2
[2]; [7]
  Weight change, aluminum: 0 mg/cm^2
[3]; [7]
  Weight change, copper: +0.02 mg/cm^2
[4]; [7]
  Weight change, steel: -0.01 mg/cm^2
[5]; [7]
  Weight change, cast iron: 0 mg/cm^2
[6]; [7]
  Weight change, tin-plate: 0 mg/cm^2

## CCCCCCCCCCCCC(O)CN1CCCN=C(C)CC1=O (stereo not drawn) [Example 27, 1-(2-hydroxy)tetradecyl-4-methyl-3,6,7,8-tetrahydro-1,5-diazocin-2-one]
[1]; [7]
  Weight change, brass: -0.03 mg/cm^2
[2]; [7]
  Weight change, aluminum: +0.02 mg/cm^2
[3]; [7]
  Weight change, copper: +0.01 mg/cm^2
[4]; [7]
  Weight change, steel: -0.01 mg/cm^2
[5]; [7]
  Weight change, cast iron: 0 mg/cm^2
[6]; [7]
  Weight change, tin-plate: -0.01 mg/cm^2
